A mixed list of measured activities; the numbers were collected in NIAID ChemDB.

All rows: whole-cell or culture tests; species: Candida albicans; endpoint: MIC

Blank or dashed fields: not listed here. Two numbers with a dash give a range or band. Lines come from different laboratories, so protocols vary.

structure	strain or isolate	result
CC1=CC[C@@H]2[C@H](C1)C2(C)C	D5	0.08–0.16 µg/mL
CCCC[C@](O)(c1ccc(F)cc1)[C@](O)(Cn1cncn1)c1ccccc1Cl	KE-2	>100 µg/mL
C[C@@H](n1ccnn1)[C@@](O)(Cn1cncn1)c1ccc(F)cc1	TA	>100 µg/mL
CCOc1cc2c(cc1F)n([O-])c(C)c(S(=O)(=O)c1ccccc1)[n+]2=O	Clinical isolate 12	15.6 µg/mL
CC[C@@](O)(c1ccc(F)cc1)[C@](O)(Cn1cncn1)c1ccc(Cl)cc1	KE-2	>100 µg/mL
CO[C@@H]1C[C@H](C[C@@H](C)[C@@H]2CC(=O)[C@H](C)/C=C(\C)[C@@H](O)[C@@H](OC)C(=O)[C@H](C)C[C@H](C)/C=C/C=C/C=C(\C)[C@H](N(O)C(N)=O)C[C@@H]3CC[C@@H](C)[C@@](O)(O3)C(=O)C(=O)N3CCCC[C@H]3C(=O)O2)CC[C@H]1C(=O)ON(C)O	442	100 µg/mL
Cc1c(NC(=O)CSC(=S)N2CCCCC2C)c(=O)n(-c2ccccc2)n1C	ATCC 10231	12.5 µg/mL
C[C@](O)(c1ccc(Cl)cc1)[C@](O)(Cn1cncn1)c1ccc(Cl)cc1	KE-2	100 µg/mL
CCc1ccc(-c2nc3cc(NC(=O)CN4CCN(C)CC4)ccc3o2)cc1	ATCC 10145	25 µg/mL
C[C@@](O)(c1ccc(Cl)cc1)[C@](O)(Cn1cncn1)c1ccc(Cl)cc1Cl	KE-2	50 µg/mL
C[C@H](n1ccnn1)[C@@](O)(Cn1cncn1)c1ccc(F)cc1	TA	100 µg/mL
CCCCCOc1ccc(-c2ccc(-c3ccc(C(=O)N[C@H]4C[C@@H](O)[C@@H](O)NC(=O)[C@@H]5[C@@H](O)[C@@H](C)CN5C(=O)[C@H]([C@H](C)O)NC(=O)[C@H]([C@H](O)[C@@H](O)c5ccc(O)cc5)NC(=O)[C@@H]5C[C@@H](O)CN5C(=O)[C@H]([C@H](C)O)NC4=O)cc3)cc2)cc1	Y7	0.08 µg/mL
N/C(=N\NC(CC(=O)c1ccc(Cl)c(Cl)c1)c1ccncc1)c1ccccn1	C873	20 µg/mL
O=C(CN1CCNCC1)Nc1ccc2oc(-c3ccc(F)cc3)nc2c1	ATCC 10145	25 µg/mL
N/C(=N\NC(CC(=O)c1ccc(Cl)c(Cl)c1)c1cccnc1)c1ccccn1	C873	80 µg/mL
Cc1ccc(OCc2n[nH]c(=S)o2)c(C(=O)c2cccc(Cl)c2)c1	-	7 µM
CO[C@H]1C[C@@H]2CC[C@@H](C)[C@@](O)(O2)C(=O)C(=O)N2CCCC[C@H]2C(=O)O[C@H]([C@H](C)C[C@@H]2CC[C@H](c3nn[nH]n3)[C@H](OC)C2)CC(=O)[C@H](C)/C=C(\C)[C@@H](O)[C@@H](OC)C(=O)[C@H](C)C[C@H](C)CCCC/C=C/1C	38247	>100 µg/mL
O=[n+]1c(Sc2ccccc2)c(CBr)n([O-])c2ccccc21	Clinical isolate 1	7.8 µg/mL
CC(=O)CCc1ccc2c(N=Nc3c([N+](=O)[O-])cc(C(=O)O)cc3[N+](=O)[O-])c(O)ccc2c1	UBA 7	15.63 µg/mL
C[C@@H](n1ccnn1)[C@@](O)(Cn1cncn1)c1ccccc1F	IFO 0583	>100 µg/mL
Cc1ccc(C(=O)c2cc(C)ccc2OCc2n[nH]c(=S)n2N)cc1	-	10.5 µM
CO[C@@H]1C[C@H](C[C@@H](C)[C@@H]2CC(=O)[C@H](C)/C=C(\C)[C@@H](O)[C@@H](OC)C(=O)[C@H](C)C[C@H](C)/C=C/C=C/C=C(\C)[C@H](N(OC)C(=O)N(C)C)C[C@@H]3CC[C@@H](C)[C@@](O)(O3)C(=O)C(=O)N3CCCC[C@H]3C(=O)O2)CC[C@H]1C(=O)ON(C)O	62376	>100 µg/mL
CCC(C)CC(C)CCCCCCCCC(=O)N[C@H]1C[C@@H](O)[C@H](NCCN)NC(=O)[C@@H]2[C@@H](O)CCN2C(=O)[C@H]([C@H](O)CCN)NC(=O)[C@H]([C@H](O)[C@@H](O)c2ccc(O)cc2)NC(=O)[C@@H]2C[C@@H](O)CN2C(=O)[C@H]([C@@H](C)O)NC1=O	40 isolates	32 µg/mL
Nn1c(COc2ccc(Cl)cc2C(=O)c2ccccc2)n[nH]c1=S	-	2.5 µM
N/C(=N\NC(CC(=O)c1ccc(-c2ccccc2)cc1)c1ccccn1)c1ccccn1	C873	>160 µg/mL
Cc1ccc(OCc2n[nH]c(=S)n2N)c(C(=O)c2cccc(Cl)c2)c1	-	3 µM
CN(CCCC#CC(C)(C)C)c1cccc2c1CCC(=O)N2	Clinical isolate 7	31.25 µg/mL
CO[C@@H]1C[C@H](C[C@@H](C)[C@@H]2CC(=O)[C@H](C)/C=C(\C)[C@@H](O)[C@@H](OC)C(=O)[C@H](C)C[C@H](C)/C=C/C=C/C=C(\C)[C@@H](N(O)C(=O)N(C)C)C[C@@H]3CC[C@@H](C)[C@@](O)(O3)C(=O)C(=O)N3CCCC[C@H]3C(=O)O2)CC[C@H]1C(=O)ON(C)O	38247	100 µg/mL
CC(C(=O)O)c1ccc2c(N=Nc3c([N+](=O)[O-])cc(C(=O)O)cc3[N+](=O)[O-])c(O)ccc2c1	UBA 7	15.63 µg/mL
C/C=C/[C@@H]1OC(=O)C=C[C@@H]1O	-	300 µg/mL
N/C(=N\NC(CC(=O)c1cccc(Cl)c1)c1ccccn1)c1ccccn1	C873	80 µg/mL
COc1ccc(C(=O)c2cc(C)ccc2OCc2nnc3n2N=C(c2ccccc2)CS3)cc1	-	8 µM
O[C@@H](c1ccc(Cl)cc1)[C@](O)(Cn1cncn1)c1ccc(Cl)cc1	KE-2	50 µg/mL
N/C(=N\NC(CC(=O)c1ccc(Cl)cc1)c1cccnc1)c1ccccn1	C873	80 µg/mL
C[C@@H](n1ccnn1)[C@@](O)(Cn1cncn1)c1ccc(F)cc1F	TA	>100 µg/mL
N/C(=N\NC(CC(=O)c1ccc(Cl)cc1)c1ccccn1)c1ccccn1	C873	40 µg/mL
O=C(Cc1ccc(Cl)cc1)Nc1ccc2oc(-c3ccccc3)nc2c1	ATCC 10145	50 µg/mL
Cc1c(Sc2ccccc2)[n+](=O)c2cc(C(F)(F)F)ccc2n1[O-]	Clinical isolate 13	15.6 µg/mL
CO[C@H]1C[C@@H]2CC[C@@H](C)[C@@](O)(O2)C(=O)C(=O)N2CCCC[C@H]2C(=O)O[C@H]([C@H](C)C[C@@H]2CC[C@@H](C(=O)ON(C)OC)[C@H](OC)C2)CC(=O)[C@H](C)/C=C(\C)[C@@H](O)[C@@H](OC)C(=O)[C@H](C)C[C@H](C)CCCC/C=C/1C	10231	50 µg/mL
Cc1c(S(=O)(=O)c2ccccc2)[n+](=O)c2ccccc2n1[O-]	Clinical isolate 18	31.25 µg/mL
CC(C)[C@@](C)(O)[C@](O)(Cn1cncn1)c1ccc(Cl)cc1Cl	KE-2	>100 µg/mL
C[C@H](n1ccnn1)[C@](O)(Cn1cncn1)c1ccc(F)cc1	TA	50 µg/mL
N/C(=N\NC(CC(=O)c1ccccc1)c1ccccn1)c1ccccn1	C873	20 µg/mL
O=C(c1ccccc1Cl)C(O)(Cn1ccnc1)c1ccccc1Cl	KE-2	100 µg/mL

A second listing of 5 rows from above:

structure	strain or isolate	result
Cc1c(NC(=O)CSC(=S)N2CCCCC2C)c(=O)n(-c2ccccc2)n1C	ATCC 10231	12.5 µg/mL
Cc1ccc(C(=O)c2cc(C)ccc2OCc2n[nH]c(=S)n2N)cc1	-	10.5 µM
CN(CCCC#CC(C)(C)C)c1cccc2c1CCC(=O)N2	Clinical isolate 7	31.25 µg/mL
C[C@@](O)(c1ccc(Cl)cc1)[C@](O)(Cn1cncn1)c1ccc(Cl)cc1Cl	KE-2	50 µg/mL
CC(=O)CCc1ccc2c(N=Nc3c([N+](=O)[O-])cc(C(=O)O)cc3[N+](=O)[O-])c(O)ccc2c1	UBA 7	15.63 µg/mL